# In PMC8184013, “Interactions of SARS-CoV-2 envelope protein with amilorides correlate with antiviral activity” (2021):
# Tests used:
# [1] = system: N15A mutant of full-length SARS-CoV-2 E protein, SARS-CoV-2, P0DTC4 1-75; assay: PFO-PAGE
# [2] = system: V25F mutant of full-length SARS-CoV-2 E protein, SARS-CoV-2, P0DTC4 1-75; assay: PFO-PAGE
Substance,result [1],result [2]
N15A mutant of full-length SARS-CoV-2 E protein,binds,
V25F mutant of full-length SARS-CoV-2 E protein,,binds
